Results of unrelated studies side by side (data: NIAID ChemDB).

Shared fields: target-level tests; agent: HIV-1; target: Reverse transcriptase; measure: IC50

a–b is a range or a potency band. An empty or dashed field is not shown. ICn is the concentration giving n% inhibition. Conditions beyond the fields shown may differ between rows.

smiles	strain or isolate	mutations	method	result
Cc1nc2ccccc2c(=O)[nH]1	-	-	nucleotide incorporation / fluorescence	>100 µM
CCN1c2ncc(CCOc3ccc(S(=O)(=O)Nc4ccc(C(=O)O)cc4)cc3C)cc2C(=O)N(C)c2cccnc21	IIIB	RT-K103N Y181C	nucleotide incorporation / radiometric	<0.05 µM
Cc1ccc(C2CCCCc3c2n(COCc2ccccc2)c(=O)[nH]c3=O)cc1	-	-	ELISA	9.31 µM
CCCCCC/C=C/CCCCCCCCCc1cccc(O)c1	-	-	RT activity / RNase H	>200 µM
COc1ccccc1-c1nc2sc3c(c2c(=O)o1)CCCCC3	-	-	nucleotide incorporation / fluorescence	>100 µM
N#Cc1cc(Cl)cc(Oc2c(Br)ccc(Cc3nn(COC(=O)CCC(=O)O)c4nnccc34)c2F)c1	-	-	nucleotide incorporation / radiometric	0.0049 µM
CCOC(=O)C(=O)CC(=O)/C=C/c1cccn1Cc1ccccc1Cl	-	Q475A	RNase H / radiometric	94 µM
NC(=O)c1cc2c([nH]c3ccccc32)c(-c2ccc(CO)o2)n1	-	-	ELISA	>65.36 µM
CN(C)c1ccc(-n2nnnc2SCC(=O)Nc2ccccc2[N+](=O)[O-])c2ccccc12	-	-	nucleotide incorporation / radiometric	<2 µM
O=c1oc(-c2ccccc2F)nc2sc3c(c12)CCCCC3	-	-	nucleotide incorporation / fluorescence	81 µM
O=C(O)c1cc(O)c2c(c1)[C@@H]([C@H]1c3cc(C(=O)O)cc(O)c3C(=O)c3c(O[C@@H]4O[C@H](CO)[C@@H](O)[C@H](O)[C@H]4O)cccc31)c1cccc(O[C@@H]3O[C@H](CO)[C@@H](O)[C@H](O)[C@H]3O)c1C2=O	-	-	RNase H / radiometric	2.1 µM
CCCCCCCCCCCCCCCC(=O)OCC(COC(=O)CCC(=O)OCC1CC(OP(=O)(O)OCC2CC(OP(=O)(O)OCC3CC(O)C(n4cnc5c(N)ncnc54)O3)C(n3cnc4c(N)ncnc43)O2)C(n2cnc3c(N)ncnc32)O1)OC(=O)CCCCCCCCCCCCCCC	-	-	-	<300 µM
COC(=O)c1ccc(NC(=O)CSc2nnnn2-c2c(C)cc(C)cc2C)c(C)c1	-	-	nucleotide incorporation / radiometric	<2 µM
CCN1c2ncc(CCOc3ccc(-c4ccc(CC(=O)O)c(F)c4)cc3C)cc2C(=O)N(C)c2cccnc21	IIIB	RT-K103N Y181C	nucleotide incorporation / radiometric	<0.05 µM
COc1ccccc1C(=O)Nc1sc2c(c1C(N)=O)CCCCC2	-	-	nucleotide incorporation / fluorescence	>100 µM
C=CCn1c2c(c(=O)[nH]c1=O)CCCCC2c1ccccc1	-	-	ELISA	>200 µM
CCCCCCCCCCCCCCCCOCC(COC(=O)CCC(=O)OCC1CC(OP(=O)(O)OCC2CC(OP(=O)(O)OCC3CC(O)C(n4cnc5c(N)ncnc54)O3)C(n3cnc4c(N)ncnc43)O2)C(n2cnc3c(N)ncnc32)O1)OCCCCCCCCCCCCCCCC	-	-	-	<300 µM
CCCCCCCCCCCCCc1cc(O)cc(O)c1	-	-	RT activity / nucleotide incorporation	>100 µM
Cc1c(C)c2c(c(C)c1OC(=O)CCC(=O)OC1CC(COP(=O)(O)OC3CC(COP(=O)(O)OC4CC(CO)OC4n4cnc5c(N)ncnc54)OC3n3cnc4c(N)ncnc43)OC1n1cnc3c(N)ncnc31)CCC(C)(CCCC(C)CCCC(C)CCCC(C)C)O2	-	-	-	<300 µM
COc1cccc(-c2nc3sc4c(c3c(=O)o2)CCCCC4)c1	-	-	nucleotide incorporation / fluorescence	67.3 µM
O=C(NCc1ccncc1)c1[nH]c2ccc(Cl)cc2c1Sc1ccccc1	-	-	nucleotide incorporation	0.003–0.035 µM
CCN1c2ncc(CCOc3ccc(N(C)c4ccc(C(=O)O)cc4)cc3C)cc2C(=O)N(C)c2cccnc21	IIIB	-	nucleotide incorporation / radiometric	<0.05 µM
Cc1nc2c(c(=O)o1)CCCCC2	-	-	nucleotide incorporation / fluorescence	>100 µM
Cc1c(C)c2c(c(C)c1OC(=O)OC1CC(COP(=O)(O)OC3CC(COP(=O)(O)OC4CC(CO)OC4n4cnc5c(N)ncnc54)OC3n3cnc4c(N)ncnc43)OC1n1cnc3c(N)ncnc31)CCC(C)(CCCC(C)CCCC(C)CCCC(C)C)O2	-	-	-	~300 µM
C[C@@H]1N2Cc3c(c4ccccc4n3C(=O)OC(C)(C)C)C1(O)c1c(n(C(=O)OC(C)(C)C)c3ccccc13)C2	-	-	radiometric	<32 µM
CCCCCCCCCCCCCCCc1cccc(O)c1C(=O)O	-	-	RT activity / nucleotide incorporation	>100 µM
Cc1cc(C)c(-n2nnnc2OCC(=O)Nc2ccccc2[N+](=O)[O-])c(C)c1	-	-	nucleotide incorporation / radiometric	<2 µM
Cc1cc(S(N)(=O)=O)ccc1NC(=O)COc1ccccc1C(=O)c1cc(Cl)cc(C#N)c1	NNRTI-resistant	RT-K103N Y181C	fluorescence	0.0108 µM
Cc1ccccc1-n1nnnc1SCC(=O)Nc1ccccc1Cl	-	-	nucleotide incorporation / radiometric	<2 µM
O=C(NCc1cccnc1)c1[nH]c2ccc(Cl)cc2c1Sc1ccccc1	-	-	nucleotide incorporation	0.003–0.035 µM
COc1cc(O)c2c(c1)C(=O)c1cc(C)cc(O)c1C2=O	-	-	RNase H / radiometric	>100 µM
Cc1cc(C)c(-n2nnnc2SCC(=O)Nc2ccc(S(N)(=O)=O)cc2C)c(C)c1	-	-	nucleotide incorporation / radiometric	<2 µM
CCNC(=O)c1[nH]c2ccc(Cl)cc2c1Sc1ccccc1	-	-	nucleotide incorporation	0.003–0.035 µM
CCN1c2ncc(CCOc3ccc(C(=O)NN)cc3C)cc2C(=O)Nc2c(C)ccnc21	IIIB	RT-K103N Y181C	nucleotide incorporation / radiometric	0.05–0.1 µM
O=C(CSc1nnnn1-c1cccc2cnccc12)Nc1ccccc1Cl	-	-	nucleotide incorporation / radiometric	<2 µM